In patent publication US11639348B2, “Compositions and methods for neuraminidase detection and quantification” (priority 2018, dated 2023):

Molecular target: A/Australia/1997 G70C H1N9 NA (Influenza A virus, UniProt P03472)
Details: A/Australia/1997 G70C H1N9, 30° C., pH 7.6

**Q.** `CC(=O)NC1C(NC(=N)N)C(F)C(Oc2c(F)cc3c(C)cc(=O)oc3c2F)(C(=O)O)OC1[C@H](O)[C@H](O)CO` (stereo partly drawn) [compound 3, 5-Acetamido-4-guanidine-3-fluoro-3,4,5-trideoxy-2α-(4-methyl-6,8-difluoromethylumbelliferyl)-D-glycero-D-galactononulopyranosylnoic acid] was tested. Which Km did it give?
**A.** The Km was 218 µM.

**Q.** What about the kcat of the same molecule?
**A.** Its kcat is 155.6 s⁻¹.
